One molecule from patent US20250034125A1, “COMPOUNDS AND USES THEREOF” (JANSSEN PHARMACEUTICA NV, priority 2019, published 2025) can be followed below.

A value given as a limit tells only on which side of the number the result lay.

Test [1] concerns the target T1, SCD5 (Homo sapiens, UniProt Q86SK9).
T1 construct: host or cells: Saccharomyces cerevisiae ole1Δ strain (W303 pdr1Δ pdr3Δ background), plasmid pRS316, TDH3 promoter
T1 sequence (Q86SK9 1-330): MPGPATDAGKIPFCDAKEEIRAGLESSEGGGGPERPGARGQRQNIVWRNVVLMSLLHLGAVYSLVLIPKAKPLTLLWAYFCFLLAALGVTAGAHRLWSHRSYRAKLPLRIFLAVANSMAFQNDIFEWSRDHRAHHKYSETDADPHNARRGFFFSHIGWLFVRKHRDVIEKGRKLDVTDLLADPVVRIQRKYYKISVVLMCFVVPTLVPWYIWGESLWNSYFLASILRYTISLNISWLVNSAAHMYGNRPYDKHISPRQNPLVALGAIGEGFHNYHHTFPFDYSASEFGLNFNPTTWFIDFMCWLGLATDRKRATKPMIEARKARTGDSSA
As to the kind of experiment: Growth inhibition of yeast (ole1Δ) expressing human SCD5 as the sole desaturase. It is filed as cell-based.

Test [2] addresses T2, SCD1 (Homo sapiens, UniProt O00767).
T2 construct: host or cells: Saccharomyces cerevisiae ole1Δ strain (W303 pdr1Δ pdr3Δ background), plasmid pRS316, TDH3 promoter
T2 sequence (O00767 1-359): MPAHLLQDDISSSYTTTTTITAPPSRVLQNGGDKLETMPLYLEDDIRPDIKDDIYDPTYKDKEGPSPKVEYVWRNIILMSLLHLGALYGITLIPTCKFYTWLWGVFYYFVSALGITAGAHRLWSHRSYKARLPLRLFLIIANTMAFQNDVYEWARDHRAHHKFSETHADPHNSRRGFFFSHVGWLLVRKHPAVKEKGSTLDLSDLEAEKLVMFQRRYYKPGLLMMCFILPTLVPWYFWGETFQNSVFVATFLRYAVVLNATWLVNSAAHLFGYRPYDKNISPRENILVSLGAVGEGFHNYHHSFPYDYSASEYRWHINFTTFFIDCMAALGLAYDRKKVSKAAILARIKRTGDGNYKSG
As to the kind of experiment: Growth inhibition of yeast (ole1Δ) expressing human SCD1 as the sole desaturase. It is filed as cell-based.

Consider `Cn1nc(NC(=O)N2CCC(Nc3ccccc3)CC2)ccc1=O` [Compound 91, N-(1-methyl-6-oxo-1,6-dihydropyridazin-3-yl)-4-(phenylamino) piperidine-1-carboxamide], for which the IC50 in test [1] and in test [2] was more than 45 µM each time.
